Consider 1 compound from patent US10633366B2, “Antibacterial compounds” (AZIENDE CHIMICHE RIUNITE ANGELINI FRANCESCO A.C.R.A.F. …, priority 2016, dated 2020).

Sequences of proteins named here, by UniProt entry; tags and fusion partners are left off.
UniProt P0AES4, whole entry: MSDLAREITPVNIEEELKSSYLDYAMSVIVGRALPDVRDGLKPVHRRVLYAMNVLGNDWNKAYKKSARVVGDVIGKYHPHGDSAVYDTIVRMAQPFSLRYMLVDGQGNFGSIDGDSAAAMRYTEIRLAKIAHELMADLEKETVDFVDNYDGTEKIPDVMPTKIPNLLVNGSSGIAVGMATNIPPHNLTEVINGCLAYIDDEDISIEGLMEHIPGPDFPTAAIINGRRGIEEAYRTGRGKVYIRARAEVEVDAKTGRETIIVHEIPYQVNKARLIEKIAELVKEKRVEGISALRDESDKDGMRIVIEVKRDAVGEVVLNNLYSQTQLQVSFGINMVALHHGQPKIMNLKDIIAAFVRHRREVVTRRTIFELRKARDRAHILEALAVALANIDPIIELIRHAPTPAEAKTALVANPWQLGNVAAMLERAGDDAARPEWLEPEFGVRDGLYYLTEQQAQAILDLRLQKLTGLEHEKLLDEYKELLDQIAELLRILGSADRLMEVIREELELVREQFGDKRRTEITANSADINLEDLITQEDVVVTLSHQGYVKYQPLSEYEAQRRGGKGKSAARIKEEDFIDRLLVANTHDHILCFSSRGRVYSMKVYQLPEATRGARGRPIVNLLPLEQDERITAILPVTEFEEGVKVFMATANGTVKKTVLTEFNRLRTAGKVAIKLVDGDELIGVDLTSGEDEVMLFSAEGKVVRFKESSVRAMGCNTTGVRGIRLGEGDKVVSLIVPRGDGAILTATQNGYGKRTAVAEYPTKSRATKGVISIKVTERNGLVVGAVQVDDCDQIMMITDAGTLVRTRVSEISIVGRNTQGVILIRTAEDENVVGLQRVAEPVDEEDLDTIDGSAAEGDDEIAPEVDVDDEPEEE
UniProt P0AFI2, whole entry: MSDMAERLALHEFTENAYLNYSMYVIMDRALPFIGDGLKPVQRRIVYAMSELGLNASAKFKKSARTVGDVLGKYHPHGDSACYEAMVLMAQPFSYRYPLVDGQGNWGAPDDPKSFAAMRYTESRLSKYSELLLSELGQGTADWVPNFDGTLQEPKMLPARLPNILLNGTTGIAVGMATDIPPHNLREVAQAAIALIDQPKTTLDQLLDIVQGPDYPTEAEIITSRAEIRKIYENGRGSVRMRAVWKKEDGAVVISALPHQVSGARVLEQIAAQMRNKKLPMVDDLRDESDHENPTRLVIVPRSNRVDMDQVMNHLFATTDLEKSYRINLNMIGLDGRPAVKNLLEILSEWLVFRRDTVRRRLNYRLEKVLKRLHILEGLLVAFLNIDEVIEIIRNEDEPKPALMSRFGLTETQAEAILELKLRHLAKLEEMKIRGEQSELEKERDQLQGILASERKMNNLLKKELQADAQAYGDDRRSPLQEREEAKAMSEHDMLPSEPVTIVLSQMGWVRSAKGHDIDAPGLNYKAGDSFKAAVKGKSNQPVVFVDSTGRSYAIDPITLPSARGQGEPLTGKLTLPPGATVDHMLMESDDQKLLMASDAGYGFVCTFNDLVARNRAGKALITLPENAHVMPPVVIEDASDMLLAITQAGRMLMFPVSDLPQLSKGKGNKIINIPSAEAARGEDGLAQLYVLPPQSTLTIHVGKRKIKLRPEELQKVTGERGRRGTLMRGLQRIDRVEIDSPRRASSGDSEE
UniProt P20083, whole entry: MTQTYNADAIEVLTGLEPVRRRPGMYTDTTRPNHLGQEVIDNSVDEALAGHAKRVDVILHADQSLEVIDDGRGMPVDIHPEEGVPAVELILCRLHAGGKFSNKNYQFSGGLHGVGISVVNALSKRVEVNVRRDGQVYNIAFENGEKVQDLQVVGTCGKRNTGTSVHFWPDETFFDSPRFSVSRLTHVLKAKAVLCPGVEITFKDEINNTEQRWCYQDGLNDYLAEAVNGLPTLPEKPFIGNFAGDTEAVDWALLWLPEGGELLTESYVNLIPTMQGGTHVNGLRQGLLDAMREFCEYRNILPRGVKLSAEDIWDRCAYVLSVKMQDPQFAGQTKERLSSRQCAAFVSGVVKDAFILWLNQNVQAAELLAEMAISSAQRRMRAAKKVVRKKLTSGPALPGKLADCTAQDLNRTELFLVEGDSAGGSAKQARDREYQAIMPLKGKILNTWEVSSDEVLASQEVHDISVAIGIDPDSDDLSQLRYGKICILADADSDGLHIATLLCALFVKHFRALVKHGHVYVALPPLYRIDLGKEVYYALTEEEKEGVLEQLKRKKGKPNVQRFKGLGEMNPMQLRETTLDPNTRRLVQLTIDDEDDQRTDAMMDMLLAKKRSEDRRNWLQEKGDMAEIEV
UniProt P0C1S7, whole entry: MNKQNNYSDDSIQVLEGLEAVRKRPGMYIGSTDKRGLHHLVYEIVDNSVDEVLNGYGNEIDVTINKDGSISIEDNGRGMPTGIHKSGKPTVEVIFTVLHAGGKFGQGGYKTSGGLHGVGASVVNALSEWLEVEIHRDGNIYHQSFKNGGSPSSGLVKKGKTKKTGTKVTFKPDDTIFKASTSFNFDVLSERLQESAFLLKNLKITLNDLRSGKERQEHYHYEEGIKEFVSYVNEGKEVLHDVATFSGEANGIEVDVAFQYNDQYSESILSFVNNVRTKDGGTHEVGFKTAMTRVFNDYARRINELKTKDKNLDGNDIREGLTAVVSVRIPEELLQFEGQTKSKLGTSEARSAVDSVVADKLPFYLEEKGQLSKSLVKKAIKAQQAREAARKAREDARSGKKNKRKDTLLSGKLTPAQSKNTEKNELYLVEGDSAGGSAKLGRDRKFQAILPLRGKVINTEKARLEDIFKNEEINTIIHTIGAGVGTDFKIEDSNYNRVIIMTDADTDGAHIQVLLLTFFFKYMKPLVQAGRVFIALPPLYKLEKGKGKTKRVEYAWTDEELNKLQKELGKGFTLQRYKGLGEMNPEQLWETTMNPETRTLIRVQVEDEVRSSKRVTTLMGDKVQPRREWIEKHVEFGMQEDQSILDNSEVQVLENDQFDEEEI
UniProt P0C1U9, whole entry: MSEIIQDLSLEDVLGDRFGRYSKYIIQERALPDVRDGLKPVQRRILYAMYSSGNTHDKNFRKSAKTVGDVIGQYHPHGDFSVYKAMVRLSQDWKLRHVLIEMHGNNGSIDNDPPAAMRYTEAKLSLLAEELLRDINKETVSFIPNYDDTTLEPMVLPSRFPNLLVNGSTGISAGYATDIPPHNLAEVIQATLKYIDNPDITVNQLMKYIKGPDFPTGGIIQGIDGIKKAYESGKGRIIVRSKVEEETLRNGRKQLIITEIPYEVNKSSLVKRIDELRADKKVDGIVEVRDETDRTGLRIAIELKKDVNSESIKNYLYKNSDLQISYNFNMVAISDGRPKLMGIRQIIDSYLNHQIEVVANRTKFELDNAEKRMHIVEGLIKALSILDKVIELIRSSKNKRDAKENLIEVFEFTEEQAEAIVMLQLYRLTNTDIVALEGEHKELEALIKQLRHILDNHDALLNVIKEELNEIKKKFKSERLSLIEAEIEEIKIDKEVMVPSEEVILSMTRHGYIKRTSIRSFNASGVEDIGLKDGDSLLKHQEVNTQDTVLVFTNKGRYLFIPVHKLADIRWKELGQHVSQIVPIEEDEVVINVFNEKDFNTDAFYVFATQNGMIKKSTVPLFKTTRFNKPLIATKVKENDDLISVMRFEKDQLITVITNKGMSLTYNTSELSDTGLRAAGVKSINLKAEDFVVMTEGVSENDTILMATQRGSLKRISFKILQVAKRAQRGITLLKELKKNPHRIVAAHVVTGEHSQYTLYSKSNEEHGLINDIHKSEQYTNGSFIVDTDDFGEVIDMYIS
UniProt P0A0K8, whole entry: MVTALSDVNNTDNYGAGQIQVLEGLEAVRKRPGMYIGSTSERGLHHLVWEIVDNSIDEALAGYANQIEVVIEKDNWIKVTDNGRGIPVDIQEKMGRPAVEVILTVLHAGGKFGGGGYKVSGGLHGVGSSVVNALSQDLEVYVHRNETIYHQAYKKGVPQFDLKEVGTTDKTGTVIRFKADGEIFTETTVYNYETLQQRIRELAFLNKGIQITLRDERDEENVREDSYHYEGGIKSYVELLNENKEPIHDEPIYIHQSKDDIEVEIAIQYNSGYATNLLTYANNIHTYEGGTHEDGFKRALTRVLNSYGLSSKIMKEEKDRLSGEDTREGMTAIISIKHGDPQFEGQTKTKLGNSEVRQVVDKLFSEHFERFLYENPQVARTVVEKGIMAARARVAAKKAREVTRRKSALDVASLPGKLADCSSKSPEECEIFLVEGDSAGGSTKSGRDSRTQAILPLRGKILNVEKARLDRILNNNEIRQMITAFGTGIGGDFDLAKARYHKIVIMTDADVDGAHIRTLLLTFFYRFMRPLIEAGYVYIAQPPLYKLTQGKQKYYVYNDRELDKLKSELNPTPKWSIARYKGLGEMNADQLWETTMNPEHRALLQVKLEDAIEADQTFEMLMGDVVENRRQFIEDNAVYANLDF
UniProt P20831, whole entry: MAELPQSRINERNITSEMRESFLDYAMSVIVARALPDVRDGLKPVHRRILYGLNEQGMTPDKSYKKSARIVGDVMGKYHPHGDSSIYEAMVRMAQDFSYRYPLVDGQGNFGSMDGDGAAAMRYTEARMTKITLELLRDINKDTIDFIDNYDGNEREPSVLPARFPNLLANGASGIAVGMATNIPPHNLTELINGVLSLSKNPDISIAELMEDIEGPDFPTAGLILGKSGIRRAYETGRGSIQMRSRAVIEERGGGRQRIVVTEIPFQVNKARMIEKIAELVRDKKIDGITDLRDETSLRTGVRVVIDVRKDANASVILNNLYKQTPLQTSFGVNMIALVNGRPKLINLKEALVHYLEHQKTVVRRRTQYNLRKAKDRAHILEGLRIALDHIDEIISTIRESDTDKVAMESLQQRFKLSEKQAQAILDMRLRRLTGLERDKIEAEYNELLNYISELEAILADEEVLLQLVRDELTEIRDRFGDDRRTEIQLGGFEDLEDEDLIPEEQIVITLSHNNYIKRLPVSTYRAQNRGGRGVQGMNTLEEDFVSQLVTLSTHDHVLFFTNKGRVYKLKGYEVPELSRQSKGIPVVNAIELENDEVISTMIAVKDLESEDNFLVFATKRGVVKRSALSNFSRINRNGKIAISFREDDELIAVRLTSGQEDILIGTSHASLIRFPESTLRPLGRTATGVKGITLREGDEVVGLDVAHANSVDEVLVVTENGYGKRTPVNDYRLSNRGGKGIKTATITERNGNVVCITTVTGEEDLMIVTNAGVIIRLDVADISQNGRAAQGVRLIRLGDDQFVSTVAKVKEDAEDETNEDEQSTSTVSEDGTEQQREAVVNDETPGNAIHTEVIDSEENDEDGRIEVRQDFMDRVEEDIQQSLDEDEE

Only a part of the results on these compounds is given; other tests are left out.

Holding throughout (format): biochemical
The target in experiment [1] is E. coli DNA gyrase (Escherichia coli, UniProt P0AES4+P0AES6). In words: DNA gyrase supercoiling assay (E. coli).
In experiment [2] the target is E. coli Topoisomerase IV (Escherichia coli, UniProt P0AFI2+P20083). The experiment in a line: Topoisomerase IV decatenation assay (E. coli).
The target of experiment [3] is S. aureus Topoisomerase IV (Staphylococcus aureus, UniProt P0C1S7+P0C1U9). In words: Topoisomerase IV decatenation assay (S. aureus).
The target of experiment [4] is S. aureus DNA gyrase (Staphylococcus aureus, UniProt P0A0K8+P20831). In words: DNA gyrase supercoiling assay (S. aureus).
Where [5] appears, read: compound conc. 50 μM, percent of inhibition versus positive control, n/a = not active.
The mark [6] stands for this setting: read-out: IC50 DNA gyrase, Table 3, eight half-log concentrations ranging from 0.1 to 300 μM.
Setting [7] is: read-out: IC50 Topo IV, Table 3, eight half-log concentrations ranging from 0.1 to 300 μM.

As to `O=C1COc2ncc(F)cc2N1C1CCN(CCc2cc3c(=O)oc4ccc(F)cc4c3[nH]2)CC1`, the figures for the “% inhibition DNA gyrase” value in experiment [1] (setting [5]) and in experiment [4] (setting [5]) were 79% and 60%, respectively. Also, the IC50 in experiment [1] (setting [6]) turned out to be 250 nM; in experiment [2] (setting [7]), 6060 nM; in experiment [3] (setting [7]), 690 nM; in experiment [4] (setting [6]) it was 490 nM. Further, the “% inhibition Topo IV” value in experiment [2] (setting [5]) and in experiment [3] (setting [5]) was 50% each time.
